Structures are written as SMILES. The entries are a selection whose mix differs from that of the whole data set. Results filed as inconclusive are left out. Calls of active or inactive are those of the source. Calls come from the whole dose curve; as a rule, active = well fitted inhibition curve with a large enough effect; inconclusive = small, poorly fitted or top-dose-only effect, or effect the other way; inactive = no such curve, though single readings can be large or run the other way.
Potency is the fitted concentration of half-maximal effect.

The nature of this test: Confirmation screen for delayed death inhibitors of the malarial parasite plastid, 48 hour incubation. Note: nearly all actives have a fitted effect of over 65% in size. To be noted: P. falciparum-infected erythrocytes, luciferase growth.
With `NC(=O)Nc1ccc([As](=O)(O)O)cc1`, the Potency was active: 12.6 µM.

Source of the values: PubChem BioAssay AID504850 (National Center for Advancing Translational Sciences (NCATS), 2011).
